# Data from article PMC4257069, “Hemerythrins in the microaerophilic bacterium Campylobacter jejuni help protect key iron–sulphur cluster enzymes from oxidative damage” (2013).
# The chains behind the UniProt entries cited, without tags or fusion partners. Where a name states a change or a piece, a line headed by the entry shows the natural chain unless it says otherwise.
# UniProt Q9PIQ3: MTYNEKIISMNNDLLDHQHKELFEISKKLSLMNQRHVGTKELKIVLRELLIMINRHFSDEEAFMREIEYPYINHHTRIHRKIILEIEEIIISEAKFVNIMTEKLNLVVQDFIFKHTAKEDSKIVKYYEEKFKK
# What was measured:
# [1] = target: HerA (Cj0241) (Campylobacter jejuni, UniProt Q9PIQ3); test: UV-VIS absorption spectroscopy; details: 50 mM azide added to as-isolated (met) di-iron protein; azido-Fe(III) form
# [2] = target: HerB (Cj1224) (Campylobacter jejuni, UniProt Q0P932); test: UV-VIS absorption spectroscopy; details: 50 mM azide added to as-isolated di-iron protein
compound,measurement,setting,value
[N-]=[N+]=N,UV-VIS absorption spectroscopy,[1],"(met) form of the protein was treated with sodium azide, a characteristic broad absorbance"
same,UV-VIS absorption spectroscopy,[2],it was reducible with dithionite and reacted with azide in a similar way
